US12458691

What was measured:
[1] = target: BG505 SOSIP trimer (HIV-1 strain BG505); experiment: BLI (Octet), IgG on the sensor, apparent KD with IgG avidity
[2] = target: BG505 DS-SOSIP trimer (HIV-1 strain BG505); experiment: as above
[3] = target: BG505 DS-SOSIP trimer (HIV-1 strain BG505); experiment: SPR, Fab over 2G12-captured trimer, 1:1 fit
[4] = target: FP8-1HQK (HIV-1 strain BG505); experiment: apparent KD; Octet BLI, antibody IgG on sensor (method per paragraph 361)

Row | Substance | Kd [1] | Kd [2] | Kd [3] | Kd [4]
1 | ACS202 (antibody) | < 1 pM | < 1 pM |  | 
2 | VRC01 (antibody) | < 1 pM | < 1 pM |  | 
3 | VRC34.01 Fab |  |  | 648 pM | 
4 | PGT151 (antibody) | < 1 pM | < 1 pM |  | < 1 pM
